Compound potency records, mixed from different reports. Data source: NIAID ChemDB in PubChem.

All rows: target-level tests; species: Pneumocystis carinii; target: Dihydrofolate reductase; endpoint: IC50

ICn is the concentration giving n% inhibition. Lines come from different laboratories, so protocols vary.

structure | value
Cc1cc(C)cc(C(=O)OCc2ccc3nc(N)nc(N)c3c2)c1 | 0.52 µM
CC(Cc1c[nH]c2nc(N)nc(N)c12)c1ccccc1 | 17.1 µM
Nc1nc(N)c2cc(COC(=O)c3cccc4ccccc34)ccc2n1 | 0.11 µM
COc1ccc2c(c1)CCc1nc3nc(N)nc(N)c3cc1-2 | 7.7 µM
COc1ccc(OC)c(CCc2cc3c(=O)[nH]c(N)nc3[nH]2)c1 | >15 µM
COc1cc(C(C)Cc2c[nH]c3nc(N)nc(N)c23)cc(OC)c1OC | 2.22 µM
Nc1nc(N)c2c(n1)C1CCC2C1 | 117 µM
Nc1nc(N)c2cc(COC(=O)c3ccccc3-c3ccccc3)ccc2n1 | 0.69 µM
Nc1nc2[nH]c(CCc3ccccc3Cl)cc2c(=O)[nH]1 | 20 µM
COc1ccc2c(c1)CCc1cc3c(N)nc(N)nc3nc1-2 | 6.7 µM
COc1cccc(OC)c1-c1cccc(C(=O)OCc2ccc3nc(N)nc(N)c3c2)c1 | 1.6 µM
COc1cccc2c1CCc1cc3c(N)nc(N)nc3nc1-2 | 8.6 µM
Nc1nc(N)c2cc(COC(=O)c3cccc(-c4ccccc4)c3)ccc2n1 | 0.38 µM
Cc1ccc(CCc2cc3c(=O)[nH]c(N)nc3[nH]2)cc1 | >18 µM
Nc1nc(N)c2c(n1)-c1ccccc1C2 | >205 µM
Nc1nc(N)c2cc3c(nc2n1)-c1ccccc1CC3 | 15.8 µM
CC/C=C/CC1=C(C)Cc2c(N)nc(N)nc21 | 176 µM
Nc1nc2[nH]c(CCc3ccccn3)cc2c(=O)[nH]1 | >19 µM

Repeating the first 2 entries:

| structure | value |
|---|---|
| Cc1cc(C)cc(C(=O)OCc2ccc3nc(N)nc(N)c3c2)c1 | 0.52 µM |
| CC(Cc1c[nH]c2nc(N)nc(N)c12)c1ccccc1 | 17.1 µM |